Reference: patent US9453062B2 (Beijing Hanmi Pharmaceutical Co., Ltd., priority 2011, dated 2016)
The same purity stands for every peptide and may come from a single statement.

Assay: general procedure: Fmoc solid-phase peptide synthesis; Fmoc-Rink amide resin; DIC/HOBt
Settings: whole synthesis, scale 0.05 mmol

In the case of “Tyr-Aib-Glu-Gly-Thr-Phe-Thr-Ser-Asp-Tyr-Ser-Ile-Tyr-Met-Glu-Lys-Glu-Ala-Val-Arg-Glu-Phe-Ile-Ala-Trp-Leu-Val-Lys-Gly-Gly-Pro-Ser-Ser-Gly-Ala-Pro-Pro-Pro-Ser-Lys(gamma-Glu-palmitoyl)(NH2)”, the “final HPLC purity” value is reported as “more than 90%”.
